B1: EBOV-515 (recombinant IgG1), Alexa Fluor 647-labelled (antibody, V domains shown)
VH: QVQLHESGPGLVKPSQTLSLTCTVSGGSINSAGYYWTWIRQHPGKGLEWIGYIDYTGRTYYNPSLESRVIISIDTSKNHFSLRLTSVSAADTAVYYCARESSWVSELGRDNWGQGTLVTVSS
VL: EIVMTQSPATLPVSPGEGATLSCRASQSVFTNLAWYQQKPGQAPRLLIYDASTRATGIPARFSGSGSGTEFTLTISSLQSEDFAVYYCQQYNNWPRTYGQGTRVEVK
B2: EBOV-442 (recombinant IgG1) (antibody, V domains shown)
VH: EVQLVESGGGLVKPGGSLRLSCTGSGGTGFTFKYAGMSWVRQAPGKGPEWIGRIKSRIDGGTTDYAAPVKDRFIVSRDDSRNTLYLQMNSLKTEDTAVYYCATGSGKGPSASFGESYYYYDFINVWGKGTTVTVSS
VL: ESVLTQSPGTLSLSPGERATLSCRASQSISRKYLAWYQQKPGQAPRLLIYGSSSRATGIPDRFSGSGSGTDFTLTISRLEPEDFAVYYCHQYESSPWTFGQGTKVEIK
notes: IgG1; source: ExpiCHO, transiently transfected, purified (HiTrap MabSelect Sure)

Experiments:
[1] = target: Cleaved EBOV GP (GPCL) displayed on Jurkat cells (Zaire ebolavirus, Makona variant …, UniProt A0A0E3TM45, strain); conditions: one partner purified
[2] = target: EBOV GP (variant Makona) displayed on Jurkat cells (Zaire ebolavirus, Makona variant …, UniProt A0A0E3TM45, strain); conditions: one partner purified

Row | Binder | binding result [1] | binding result [2]
1 | B1 | binds | binds
2 | B2 | binds | binds

— PMC8133395 (Cell reports, 2021)
